These results are taken from patent US20220009967A1, “Isolation and Semi-Synthesis of Rufomycin Analogs” (THE BOARD OF TRUSTEES OF THE UNIVERSITY OF ILLINOIS, priority 2020, published 2022).

Amino acid sequences for entries named in this document (tags omitted). Residues count along the entry.
UniProt P9WPC9, whole entry: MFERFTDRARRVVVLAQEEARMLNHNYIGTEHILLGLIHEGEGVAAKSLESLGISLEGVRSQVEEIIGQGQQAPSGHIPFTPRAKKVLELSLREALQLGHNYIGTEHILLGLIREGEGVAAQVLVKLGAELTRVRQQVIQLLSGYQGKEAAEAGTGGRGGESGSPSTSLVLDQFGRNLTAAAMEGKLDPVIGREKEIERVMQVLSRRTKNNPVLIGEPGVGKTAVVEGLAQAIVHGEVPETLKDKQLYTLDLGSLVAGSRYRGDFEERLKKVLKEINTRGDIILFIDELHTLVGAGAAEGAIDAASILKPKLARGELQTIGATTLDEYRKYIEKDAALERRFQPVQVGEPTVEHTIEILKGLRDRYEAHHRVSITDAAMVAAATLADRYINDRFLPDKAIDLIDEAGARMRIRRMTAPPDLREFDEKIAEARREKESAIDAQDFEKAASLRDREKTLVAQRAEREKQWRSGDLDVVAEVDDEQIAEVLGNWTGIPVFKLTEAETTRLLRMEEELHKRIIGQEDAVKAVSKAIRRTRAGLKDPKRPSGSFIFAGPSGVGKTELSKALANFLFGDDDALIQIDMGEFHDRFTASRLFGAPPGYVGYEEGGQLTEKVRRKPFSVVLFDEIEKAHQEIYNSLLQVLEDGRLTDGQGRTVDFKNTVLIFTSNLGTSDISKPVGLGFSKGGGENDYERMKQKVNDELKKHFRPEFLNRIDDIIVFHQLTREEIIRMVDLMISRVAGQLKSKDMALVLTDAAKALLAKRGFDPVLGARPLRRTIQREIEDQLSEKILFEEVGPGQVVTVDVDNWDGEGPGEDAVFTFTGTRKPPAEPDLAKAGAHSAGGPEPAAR
UniProt P9WPC9, 2-144 limits assumed: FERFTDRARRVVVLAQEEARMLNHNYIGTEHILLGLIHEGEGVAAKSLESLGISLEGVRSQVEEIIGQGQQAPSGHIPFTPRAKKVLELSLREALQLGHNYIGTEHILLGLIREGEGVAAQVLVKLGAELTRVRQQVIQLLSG

≈ marks a conversion by molar mass, not a printed value.

One assay concerns M. tuberculosis. The assay can be described thus: MIC against M. tuberculosis, microplate Alamar Blue assay (MABA). Type of assay: cell-based, Mycobacterium tuberculosis. (Alamar Blue is a resazurin reagent that responds to reducing activity.)
The next assay addresses Mycobacterial ClpC1 FL (Mycobacterium tuberculosis, UniProt P9WPC9). Briefly: SPR binding affinity to ClpC1 full-length protein (FL). Particulars: read-out: SPR KD FL, KD=kd/ka, Table 1.
The target in a further assay is Mycobacterial ClpC1-NTD (Mycobacterium tuberculosis, UniProt P9WPC9). The assay can be described thus: SPR binding affinity to ClpC1-NTD. Particulars: read-out: SPR KD NTD; ClpC1 N-terminal domain; KD=kd/ka; Table 1. In general terms: SPR reads the build-up and loss of mass on a sensor chip optically.
The mark [1] stands for this setting: MABA, 90% reduction in fluorescence, Table 1.

Consider `C/C=C/C[C@@H]1NC(=O)[C@H](CC(C)C)N2C(=O)[C@H](CC(C)[C@H]2OC)N(C)C(=O)[C@H](C)NC(=O)[C@H](Cc2ccc(OC(C)=O)c([N+](=O)[O-])c2)NC(=O)[C@H](CC(C)C)N(C)C(=O)[C@H](Cc2cn(C(C)(C)[C@H]3CO3)c3ccccc23)NC1=O` (some centres unmarked), for which the MIC in the assay on M. tuberculosis (setting [1]) is listed as 5.1 nM (≈ 5.6 ng/mL). In addition, the results for the Kd on Mycobacterial ClpC1 FL and at Mycobacterial ClpC1-NTD were 0.0977 µM and 0.0621 µM, respectively.

For `C/C=C/C[C@@H]1NC(=O)[C@H](CC(C)C)N2C(=O)[C@H](CC(C)[C@H]2OC)N(C)C(=O)[C@H](C)NC(=O)[C@H](Cc2ccc(OC(C)=O)c([N+](=O)[O-])c2)NC(=O)[C@H](CC(C)C)N(C)C(=O)[C@H](Cc2cn(C(C)(C)[C@H](O)CCl)c3ccccc23)NC1=O` (some centres unmarked), the MIC against M. tuberculosis (setting [1]) amounted to 1.4 nM (≈ 1.59 ng/mL); in the assay with M. tuberculosis (text summary of Table 1, unit not given) it was 1.4. The “increase in activity compared to rufomycin analogues 1 and 2” value with M. tuberculosis (MIC ratio, in words) was “ten-fold increase in activity”. The Kd at Mycobacterial ClpC1 FL was 0.121 µM; on Mycobacterial ClpC1-NTD it was 0.0776 µM.
